# Patent US20080182249A1, “Expression systems for mammalian and mycobacterial desaturases” (priority 2006, published 2008)
# Target: T1, mycobacterial DesA3 (Rv3229c) (UniProt P9WNZ3)
# T1 sequence: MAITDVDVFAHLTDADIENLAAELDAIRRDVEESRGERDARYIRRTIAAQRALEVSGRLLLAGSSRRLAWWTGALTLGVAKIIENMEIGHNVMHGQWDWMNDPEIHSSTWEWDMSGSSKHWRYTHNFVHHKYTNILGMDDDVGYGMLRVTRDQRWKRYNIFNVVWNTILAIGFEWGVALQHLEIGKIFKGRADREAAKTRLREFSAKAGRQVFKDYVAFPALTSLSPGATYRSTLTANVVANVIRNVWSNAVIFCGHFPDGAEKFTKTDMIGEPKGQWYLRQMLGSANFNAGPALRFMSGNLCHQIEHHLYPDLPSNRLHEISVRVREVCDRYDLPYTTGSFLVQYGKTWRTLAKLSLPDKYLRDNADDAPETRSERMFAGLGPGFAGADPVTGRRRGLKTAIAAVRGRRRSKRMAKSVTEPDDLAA
substance,measurement,value
Mycobacterium tuberculosis H37Rv oxidoreductase Rv3230c,increase in activity of production of 18:1-CoA,up to 30-fold
same,rate of production of 18:1-CoA,greater than 10-fold increase
